# Data as given in PubChem BioAssay AID624099 (ICCB-Longwood, 2012)
# Purpose: 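Host factors E2 relies on to silence an HPV18 LCR reporter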 (primary screen)
# Cells: human C33A cervical carcinoma cells (HPV-negative) stably expressing BPV1 E2 and an HPV18 LCR luciferase reporter
# Knock-down reagent: siRNA pool against human genes, 40 nM
# Time to read-out: 72 h
# Detection: 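HPV18 LCR reporter light per well, converted to plate-wise z-scores that exclude control wells, and averaged over triplicate plates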
# Reading the numbers: mean z-score and z-score: higher = stronger reporter signal, weaker E2 silencing
# Rule for the call: 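Hit if mean z-score reaches 2 and two or more of three replicate z-scores also reach 2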
# In all, the deposit lists about 21,000 reagents; this is a part drawn at random. In the full data, 497 (2.4%) got an active call. 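Higher z means weaker E2 silencing; only reporter increases were scored, and knock-downs that hurt cell survival may mask genuine repressor factors.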
target gene,PubChem SID,mean z-score,"z-score, replicate A","z-score, replicate B","z-score, replicate C",activity call
SRGN (serglycin),SID134323465,0.63,0.98,0.59,0.31,inactive
IFNA13 (interferon alpha 13),SID134318434,0.13,0.15,0.13,0.12,inactive
"NBPF7P (NBPF member 7, pseudogene)",SID134325292,0.14,0.29,-0.01,0.14,inactive
TFG (trafficking from ER to golgi regulator),SID134320362,2.63,2.41,2.51,2.98,active
LOC400847 (retired record),SID134329023,-1.97,-2.14,-2.11,-1.64,inactive
SLCO1B1,SID134312488,-1.05,-0.95,-1.12,-1.08,inactive
MTMR7 (myotubularin related protein 7),SID134312973,-0.61,-0.33,-0.77,-0.73,inactive
BLVRA (biliverdin reductase A),SID134310113,0.22,0.27,0.23,0.16,inactive
NFAT5 (nuclear factor of activated T cells 5),SID134314347,0.11,-0.16,0.18,0.3,inactive
FGFRL1 (fibroblast growth factor receptor like 1),SID134317303,-1.88,-1.66,-2.09,-1.87,inactive

An excerpt from above, showing only “z-score, replicate B”.
MTMR7 (myotubularin related protein 7) [SID134312973] = -0.77
BLVRA (biliverdin reductase A) [SID134310113] = 0.23
NFAT5 (nuclear factor of activated T cells 5) [SID134314347] = 0.18
FGFRL1 (fibroblast growth factor receptor like 1) [SID134317303] = -2.09

Next reagents follow:
target gene,PubChem SID,mean z-score,"z-score, replicate A","z-score, replicate B","z-score, replicate C",activity call
ACCS,SID134314469,-0.86,-1.07,-0.73,-0.78,inactive
KCNA10 (potassium voltage-gated channel subfamily A member 10),SID134311629,0.52,0.76,0.56,0.25,inactive
IL32 (interleukin 32),SID134320001,-0.7,-0.81,-0.53,-0.77,inactive
ZNF791 (zinc finger protein 791),SID134319777,0.18,0.02,-0.01,0.52,inactive
LEAP2 (liver enriched antimicrobial peptide 2),SID134319229,-0.06,-0.28,0.3,-0.19,inactive
FFAR1 (free fatty acid receptor 1),SID134311013,-0.54,-0.74,-0.52,-0.36,inactive
NHERF4 (NHERF family PDZ scaffold protein 4),SID134320992,-0.13,0.25,-0.03,-0.59,inactive
OXER1 (oxoeicosanoid receptor 1),SID134311171,-0.47,-0.6,-0.53,-0.27,inactive
RACK1 (receptor for activated C kinase 1),SID134312021,1.42,1.33,1.58,1.36,inactive
LRP8 (LDL receptor related protein 8),SID134316120,-1.39,-1.49,-1.25,-1.43,inactive
RASGEF1A (RasGEF domain family member 1A),SID134320264,0.88,0.8,1.18,0.66,inactive
THNSL1 (threonine synthase like 1),SID56479169,0.05,0.2,-0.35,0.3,inactive
ATP2B3 (ATPase plasma membrane Ca2+ transporting 3),SID134311536,1.78,1.98,1.91,1.45,inactive
